Anti-infective test results gathered from many reports (values: NIAID ChemDB through PubChem).

Common to all: whole-cell or culture tests; species: HIV-1

Blank or dashed fields: not listed here. Rows are shuffled and stem from different studies. ECn is the concentration giving n% inhibition of infection, replication or growth.

smiles	endpoint	cell line	method	changes	conditions	strain or isolate	value
NC(=O)CCNC[C@H](Cc1ccc(O)cc1)NC[C@H](Cc1ccc(O)cc1)NC[C@H](Cc1ccc(O)cc1)NC[C@@H](N)Cc1ccc(O)cc1	EC50	HeLa	luciferase				19 µM
CC1=C(CCC(=O)O)c2cc3[nH]c(cc4nc(cc5[nH]c(cc1n2)c(CCC(=O)O)c5CC(=O)O)C(CCC(=O)O)=C4C)c(CCC(=O)O)c3CC(=O)O	EC50	MT-2	cytopathic effect / XTT			IIIB	16.9 µg/mL
Cc1cn([C@@H]2O[C@H](COC(=S)N(C)C)C3(OS(=O)(=O)C=C3N)[C@H]2O[Si](C)(C)C(C)(C)C)c(=O)n(C)c1=O	EC50	MT-4					>10 µM
O=c1cc(Cc2ccc3ccccc3c2)nc(SC2CCCC2)[nH]1	EC50	MT-4	cytopathic effect / MTT	RT-V179D		MC639(RT-V179D)	20 µM
COc1ccccc1C[C@H](C[C@H](O)[C@H](Cc1ccccc1)NC(=O)OC(C)(C)C)C(=O)N[C@H](C(=O)N[C@@H](Cc1ccccc1)C(=O)N1CCOCC1)C(C)C	EC90	MT-2	RT activity			MN	0.1 µM
COc1ccc(Nc2nc3ccccc3n3cccc23)cc1	EC50	MT-4	cytopathic effect / MTT				>100 µM
Cc1ccccc1CNC(=O)[C@H]1N(C(=O)[C@@H](O)[C@H](CCc2ccccc2)NC(=O)O[C@H]2CCOC2)CSC1(C)C	EC50						0.02 µM
Cc1cc(C)c2ccccc2c1-n1c(C)nnc1SCC(=O)Nc1ccccc1Br	EC50	HeLa + HeLa-JC53	luciferase	RT-Y188L		NL4-3	0.089 µM
COC(=O)[C@H](C)NP(=O)(OC[C@@H]1C=C[C@H](n2cc(C)c(=O)[nH]c2=O)O1)Oc1ccc(F)cc1	EC50	CEM + CEM/0	syncytia			IIIB	0.13 µM
CCOC(=O)c1ccc(OCc2nc3ccccc3n3cccc23)cc1	EC50	MT-4	cytopathic effect / MTT				>100 µM
Cc1cc(C)cc(S(=O)(=O)c2c(C(N)=O)[nH]c3c(Cl)cc(Cl)cc23)c1	EC90	MT-4	cytopathic effect / MTT / p24			IIIB	1.2 µM
COc1cccc2ccc(/C=C/C(=O)Nc3ccc(C)cc3)nc12	EC50	TZM-bl	luminescence			UG070	155 µM
CC(C)[C@H](NC(=O)[C@H](OCc1ccccc1)[C@H](O)[C@@H](O)[C@@H](OCc1ccccc1)C(=O)N[C@H]1c2ccccc2C[C@H]1O)C(=O)NCCF	EC50						0.17 µM
O/C(=C\c1cc(CCc2ccccc2)ncn1)c1ccccn1	EC50	MT-4	cytopathic effect / MTT			IIIB	>12.5 µg/mL
C=CCc1cc(-c2ncc(O)cn2)ccc1O	EC90	PBMC	RT activity			LAV	>100 µM
Cc1cn([C@@H]2O[C@H](CN3CCN(Cc4ccccc4)CC3)C3(OS(=O)(=O)C=C3N)[C@H]2O[Si](C)(C)C(C)(C)C)c(=O)n(C)c1=O	EC50	MT-4					>10 µM
Nc1ncnc2c1ncn2C[C@@H](CO)OCP(=O)(O)O	EC50	MT-4	cytopathic effect			IIIB	>13 µM
N#C[C@]1(CO)O[C@@H](n2cnc3c(N)ncnc32)C[C@@H]1O	EC50		cytopathic effect / MTT			LAI	0.137 µM
COc1cc(OCc2nc3ccccc3n3cccc23)cc(OC)c1OC	EC50	MT-4	cytopathic effect / MTT				>55 µM
C=CCN(C(=O)OCc1ccc([N+](=O)[O-])cc1)C1CCN(C[C@H]2CN(C(=O)C3CCCC3)C[C@]2(O)c2ccccc2)CC1	EC50	PBMC	p24			CA9 R5 CLADE O	0.0003 µM
COc1ccc(C[C@H](C[C@H](O)[C@H](Cc2ccccc2)NC(=O)OC(C)(C)C)C(=O)N[C@H](C(=O)N[C@@H](Cc2ccccc2)C(=O)N2CCOCC2)C(C)C)cc1	EC90	MT-2	RT activity			MN	0.03 µM
CC1=CCC[C@H]2[C@](C)(Cc3cc(O)ccc3O)[C@@H](C)CC[C@]12C	EC50	H9	p24			IIIB	<0.1 µg/mL
C=Cc1c(C)c2cc3[nH]c(cc4nc(cc5nc(cc1[nH]2)C(C)=C5CCC(=O)OC)C(CCC(=O)OC)=C4C)c(C)c3C=C	EC50	MT-2	cytopathic effect / XTT			IIIB	48.9 µg/mL
Nc1nc2c(ncn2C[C@@H](CO)OCP(=O)(O)O)c(=O)[nH]1	EC50	MT-4	cytopathic effect			IIIB	43 µM
Cc1ccc(-n2c(C)nnc2SCC(=O)Nc2ccccc2-c2ccccc2)cc1	EC50	HeLa + HeLa-JC53	luciferase			NL4-3	>10 µM
CCCN1C(=O)N(CCC)N(C(=O)C(C)C)C[C@@H](O)[C@H]1Cc1ccccc1	EC50	MT-4	cytopathic effect			IIIB	2.9 µM
CCOC(=O)CCC(NC(=O)c1ccc(Nc2nc3cc(C(F)(F)F)ccc3n3cccc23)cc1)C(=O)OCC	EC50	MT-4	cytopathic effect / MTT				>39 µM
COc1ccccc1-c1nnc(-c2ccc3cccc(OC)c3n2)o1	EC50	TZM-bl	luminescence			UG070	61.98 µM
N#C[C@]1(CO)O[C@@H](n2cnc3c(=O)[nH]cnc32)C[C@@H]1O	EC50	MAGI	β-galactosidase	RT-M184V		3TC-resistant (RT M184V)	6.06 µM
CC(C)=CCOC[C@H]1O[C@@H](n2cc(C)c(=O)n(C)c2=O)[C@H](O[Si](C)(C)C(C)(C)C)C12OS(=O)(=O)C=C2N	EC50	MT-4					6.46 ± 2.19 µM
Nc1nc2c(ncn2C[C@H](CF)OCP(=O)(O)O)c(=O)[nH]1	EC50	MT-4	cytopathic effect			IIIB	5.9 µM
Cc1ccc(N=Cc2cc3ccccc3nc2Nc2ccc(C)cc2)cc1	EC50	TZM-bl	luminescence			VB59	>130 µM
C[C@@H](Cn1cnc2c(=O)[nH]c(N)nc21)OCP(=O)(O)O	EC50	MT-4	cytopathic effect			IIIB	27 µM
O/C(=C\c1cc(CCc2ccccc2)ncn1)c1cccnc1	EC50	MT-4	cytopathic effect / MTT			IIIB	>12.5 µg/mL
CCCC(CCC)C(=O)N1C[C@@H](O)[C@@H](Cc2ccccc2)N(Cc2ccc(O)cc2)C(=O)N1Cc1ccc(O)cc1	EC50	MT-4	cytopathic effect			IIIB	0.33 µM
CCOCCCNC(=O)[C@@H](NC(=O)[C@H](Cc1ccc(OC)c(OC)c1OC)C[C@H](O)[C@H](Cc1ccccc1)NC(=O)OC(C)(C)C)C(C)C	EC90	MT-2	RT activity			MN	0.03 µM
O/C(=C\c1cc(CCc2ccccc2)ncn1)c1ccccc1	EC50	MT-4	cytopathic effect / MTT			IIIB	>12.5 µg/mL
Nc1nc2c(ncn2C[C@H](CO)OCP(=O)(O)O)c(=O)[nH]1	EC50	MT-4	cytopathic effect			IIIB	>12.5 µM
CN(C(=O)[C@H](Cc1ccccc1)NC(=O)Cc1c[nH]c2ccc(Cl)cc12)c1ccccc1	EC50	HeLa				VSV-G	0.39 µM
O=c1cc(/C(O)=C/c2cc(CCc3ccccc3)ncn2)o[nH]1	EC50	MT-4	cytopathic effect / MTT			IIIB	>65 µM
Nc1nccc2c1ncn2[C@@H]1C=C(CO)[C@@H](O)[C@H]1O	EC50	PBMC	p24			18431 unpaired	0.0027 µM
Cc1ccc(C2CC2)c(-c2cc(F)c3c(c2C)CCCO3)c1[C@H](OC1CC1)C(=O)O	EC90	MT-4	luminescence			NL4-3	0.03 µM
O=C(c1ccco1)N1C[C@@H](O)[C@@H](Cc2ccccc2)N(Cc2ccc(O)cc2)C(=O)N1Cc1ccc(O)cc1	EC50	MT-4	cytopathic effect			IIIB	1.92 µM
Nc1ccn([C@@H]2O[C@H](CO)C=C2F)c(=O)n1	EC50					xxBRU	8 µM
O=C(O)CCC(NC(=O)c1ccc(Nc2nc3cc(C(F)(F)F)ccc3n3cccc23)cc1)C(=O)O	EC50	MT-4	cytopathic effect / MTT				>100 µM
Nc1ncnc2c1ncn2[C@@H]1C=C(CO)[C@@H](O)[C@H]1O	EC50	PBMC	p24			18601 unpaired	0.0534 µM
CC(=O)Nc1ccc(S(=O)(=O)N(Cc2ccccc2)C[C@@H](O)[C@H](CCc2ccccc2)NC(=O)Cc2c[nH]c3ccccc23)cc1	EC50						4.8 µM
C=Cc1c(C)c2cc3c(C=C)c(C)c(cc4nc(cc5nc(cc1[nH]2)C(C)=C5CCC(=O)O)C(CCC(=O)O)=C4C)n3C	EC50	MT-2	cytopathic effect / XTT			IIIB	0.89 µg/mL
O=C(O)/C(O)=C/c1cc(OCc2ccccc2)ncn1	EC50	MT-4	cytopathic effect / MTT			IIIB	4.4 µM
COc1ccc(C[C@H](C[C@H](O)[C@H](Cc2ccccc2)NC(=O)OC(C)(C)C)C(=O)N[C@H](C(=O)NCCN(C)C)C(C)C)cc1OC	EC90	MT-2	RT activity			MN	1 µM
COc1ccc2c(c1)N(C(=O)OC(C)C)[C@@H](CSC)C(=S)N2	EC50	PBL	p24			D34	0.001 µM
Cc1ccccc1CNC(=O)[C@H]1N(C(=O)[C@@H](O)[C@H](CCc2ccccc2)NC(=O)O[C@H]2CO[C@H]3OCC[C@H]32)CSC1(C)C	EC50					ERS104pre	0.031 µM
CC(C)[C@H](NC(=O)[C@H](Cc1ccc2c(c1)OCO2)C[C@H](O)[C@H](Cc1ccccc1)NC(=O)OC(C)(C)C)C(=O)N[C@@H](Cc1ccccc1)C(=O)N1CCOCC1	EC50	MT-2	RT activity			MN	<0.01 µM
Cc1ccc(-n2c(C)nnc2SCC(=O)Nc2ccc(C)cc2Cl)cc1	EC50	HeLa + HeLa-JC53	luciferase	RT-K103N Y181C		NL4-3	0.17 µM
O=c1c(CCc2ccncc2)c(-c2ccc(C(F)(F)F)cc2)[nH]n1-c1nc2ccccc2[nH]1	EC50	PBMC	p24 / ELISA			NL4-3	0.001 µM
CN1N=C(N)c2cn([C@@H]3O[C@H](COP(=O)(O)O)[C@@H](O)[C@H]3O)c3ncnc1c23	EC50	H9	RT activity			IIIB	0.02 µM
O=C(O)C(=O)/C=C(\O)c1cn(S(=O)(=O)c2ccccc2)c2ccc(Cl)cc12	EC50	MT-4	cytopathic effect / MTT			IIIB	6 µM
O=C(O)c1cc(-n2cccc2)ccc1Cl	EC90	PBMC + MT-2	p24			94UG103 X4R5 CLADE A	78.15 µM
Cc1cc(=O)c2c(O)c3c(O)cc(O)c4c5c(O)cc(O)c6c(O)c7c(=O)cc(C)c8c1c2c(c34)c(c65)c78	EC50	CEM	ELISA		7 d		<0.25 µg/mL
COc1cccc(/C=N/NC(=O)c2c(O)c3ccccc3[nH]c2=O)c1	EC50	MT-4	MTT				>100 µg/mL
CN=C1Cc2cc(S(=O)(=O)N(CC(C)C)C[C@@H](O)[C@H](Cc3ccccc3)NC(=O)OC3CO[C@H]4OC[C@H](OCc5ccccc5F)[C@@H]34)ccc2N1	EC50					IIIB	0.0007 µM
NS(=O)(=O)c1ccc(NC(=O)CSc2nnc(C(F)(F)F)n2-c2ccc(Cl)c3ccccc23)c(Cl)c1	EC50	HeLa + HeLa-JC53	luciferase	RT-Y188L		NL4-3	0.041 µM
CC(=O)Nc1ccc(S(=O)(=O)N(CC(C)C)C[C@@H](O)[C@H](CCc2ccccc2)NC(=O)CN2C(=O)c3ccccc3S2(=O)=O)cc1	EC50						7.2 µM
CC(C)=CCN1Cc2cc(Cl)cc3[nH]c(=O)n(c23)C[C@@H]1C	EC50	MT-4	cytopathic effect / XTT	RT-Y181C		IIIB	124 µM
CCOC(=O)CCC(NC(=O)c1ccc(Nc2nc3ccccc3n3cccc23)cc1)C(=O)OCC	EC50	MT-4	cytopathic effect / MTT				>48 µM
CCc1c(C)[nH]c(=O)c([N+](=O)[O-])c1Sc1cc(C)cc(C)c1	EC50	CEM + CEM-SS	cytopathic effect			LAI	0.006 µM
C=C(C)CNC(=O)[C@H]1N(C(=O)[C@@H](O)[C@H](CCc2ccccc2)NC(=O)COc2c(C)cc(N)cc2C)CSC1(C)C	EC50						0.01 µM
CCOC(=O)c1ccc(Nc2nc3cc(C(F)(F)F)ccc3n3cccc23)cc1	EC50	MT-4	cytopathic effect / MTT				>100 µM
Nc1ncnc2c1ncn2C[C@H](CO)OCP(=O)(O)O	EC50	MT-4	cytopathic effect			IIIB	>330 µM
COc1cc(OC)cc(OCc2nc3ccccc3n3cccc23)c1	EC50	MT-4	cytopathic effect / MTT				>100 µM
COCCNC(=O)[C@@H](NC(=O)[C@H](Cc1cccc(OC)c1)C[C@H](O)[C@H](Cc1ccccc1)NC(=O)OC(C)(C)C)C(C)C	EC90	MT-2	RT activity			MN	0.03 µM
Cc1ccc(-n2c(C)nnc2SCC(=O)Nc2ccccc2Br)c2ccccc12	EC50	HeLa + HeLa-JC53	luciferase	RT-K103N Y181C		NL4-3	0.014 µM
C=CC1=C(C)C2=NC1=CC1=NC(=C(CC)/C1=C\[O-])C=c1[n-]c3c(c1C)C(=O)[C@H](C(=O)OC)C=3C1=NC(=C2)[C@@H](C)[C@@H]1CCC(=O)OC/C=C(\C)CCCC(C)CCCC(C)CCCC(C)C.[Mg+2]	EC50	MT-2	cytopathic effect / XTT			IIIB	>80 µg/mL
CNCc1nnc(SCC(=O)Nc2ccc(C)cc2Br)n1-c1ccc(C)cc1	EC50	HeLa + HeLa-JC53	luciferase	RT-K103N Y181C		NL4-3	>10 µM
O=C(Nc1ccc(Cl)cc1)N(CCCN1CCC(Cc2ccccc2)CC1)c1ccccc1	EC50	MAGI + MT-4	β-galactosidase			BaL	<0.16 µM